Measurements: US8012982B2, “Modulators of HCV replication” (priority 2004, dated 2011)

What was measured:
Format in all cases: cell-based
pHCVNeo17.m17 replicon = details: replicon pHCVNeo17.m17: E1202G
[1] = test system: adapted replicons carrying A2064V, Y2065H or R2129W; details: transient transfection
pHCVNeo17.m31 replicon = details: replicon pHCVNeo17.m31: A2064V
pHCVNeo17.m45 replicon = details: replicon pHCVNeo17.m45: E1202G, H2057R
pHCVNeo17.m43 replicon = details: replicon pHCVNeo17.m43: E1202G, A2064V
pHCVNeo17.m48 replicon = details: replicon pHCVNeo17.m48: E1202G, H2057R, A2064V

**Q.** What does the source list for CC(C)(C)OC(=O)N1CCN(c2ccc(C(=O)Nc3ccc(O)cc3)cc2)CC1 [Example 101, tert-butyl 4-(4-{[(4-hydroxyphenyl)amino]carbonyl}phenyl)piperazine-1-carboxylate]?
**A.** Cmpd Ib IC50 (μM) (pHCVNeo17.m17 replicon): activation; Resistance of adapted replicons carrying A2064V, Y2065H or R2129W [1]: clearly resistant; Cmpd Ib IC50 (μM) (pHCVNeo17.m31 replicon): No effect; Cmpd Ib IC50 (μM) (pHCVNeo17.m45 replicon): activation; Cmpd Ib IC50 (μM) (pHCVNeo17.m43 replicon): No effect; Cmpd Ib IC50 (μM) (pHCVNeo17.m48 replicon): No effect
